Results of unrelated studies side by side (data: NIAID ChemDB).

Shared fields: growth or infection tests; species: HIV-1; cells: CEM; measure: EC50

Conditions beyond the fields shown may differ between rows. Blank or dashed fields: not listed here. ECn: concentration that inhibits the pathogen or its effect by n%.

compound | strain or isolate | changes | read by | result
COc1ccc(CS(=O)(=O)c2cccc[n+]2[O-])cc1 | IIIB | - | syncytia | ≥20 µg/mL
CC(C)OC(=O)c1cc(NC(=O)C(C)(C)C)c(F)cc1Cl | IIIB | - | cytopathic effect / XTT | 0.0427 µg/mL
O=S(=O)(O)c1cc(N=Nc2cc(S(=O)(=O)O)c3ccccc3c2O)ccc1/C=C/c1ccc(N=Nc2cc(S(=O)(=O)O)c3ccccc3c2O)cc1S(=O)(=O)O | - | - | XTT | 0.49 µM
Cc1cccc(CS(=O)c2cccc[n+]2[O-])c1 | IIIB | - | syncytia | ≥20 µg/mL
C=C(C)[C@@H]1CC[C@]2(C(=O)NCCCCCCCC(=O)N[C@@H](CC(C)C)[C@@H](O)CC(=O)O)CC[C@]3(C)[C@H](CC[C@@H]4[C@@]5(C)CC[C@H](O)C(C)(C)[C@@H]5CC[C@]43C)[C@@H]12 | ELI | - | cytopathic effect / MTT | >1 µM
O=C(N[C@@H](Cc1ccccc1)[C@H](O)CN(CC1CCCC1)S(=O)(=O)c1ccc(OC(F)(F)F)cc1)O[C@H]1CCOC1 | IIIB | - | p24 | <1.001 µM
COc1cccc(F)c1C1SCC(=O)N1c1cccc(C)n1 | IIIB | - | syncytia | 0.219 µM
Cc1cccn2c(C3OCCO3)cnc12 | IIIB | - | syncytia | >100 µM
O=S(=O)([O-])c1cc(N=Nc2cc(S(=O)(=O)[O-])c3cccnc3c2O)ccc1/C=C/c1ccc(N=Nc2cc(S(=O)(=O)[O-])c3cccnc3c2O)cc1S(=O)(=O)[O-].[Mg+2].[Mg+2] | - | - | XTT | 0.88 µM
OC[C@H]1O[C@@H](c2cc(Cl)c(F)cc2F)C[C@@H]1O | IIIB | - | syncytia | >250 µM
Cc1ccc(Cl)c(C(C)S(=O)c2cccc[n+]2[O-])c1 | IIIB | - | syncytia | >0.16 µg/mL
CC(C)(C)c1ccccc1Sc1c(O)cc(-c2ccc(OCc3cccnc3)cc2)oc1=O | IIIB | - | - | >100 µM
Cc1cc(C)nc(N2C(=O)CSC2c2c(C(F)(F)F)ccc(Cl)c2F)c1 | IIIB | - | syncytia | 5.92 µM
COC(=O)C(c1cccc(Oc2ccccc2)c1)S(=O)(=O)c1cccc[n+]1[O-] | IIIB | - | syncytia | >4 µg/mL
C=CCOC(=O)N[C@@H](Cc1ccccc1)[C@H](O)CN(CC(C)C)S(=O)(=O)c1ccc(F)cc1 | IIIB | - | p24 | <1.001 µM
CCCCCCCCOc1ccc(/C=C(/C#N)Sc2cccc[n+]2[O-])cc1 | IIIB | - | syncytia | >20 µg/mL
COc1ccc(S(=O)(=O)N(CC(C)C)C[C@@H](O)CCN(CC2CCCC2)S(=O)(=O)c2ccncc2)cc1 | IIIB | - | p24 | <1 µM
Cc1cc(C)c(CS(=O)c2cccc[n+]2[O-])c(C)c1 | MN | - | cytopathic effect | 7.6 µg/mL
COc1ccc(CS(=O)(=O)c2cccc[n+]2[O-])cc1OC | IIIB | - | syncytia | ≥20 µg/mL
Cc1ccc(C(C)S(=O)(=O)c2c(C)ccc[n+]2[O-])c(C)c1 | - | RT-K103N | cytopathic effect | 50 µg/mL
Cc1ccn2c(C3OCCS3)cnc2c1 | IIIB | - | syncytia | >20 µM
Cc1ccc(C)c(CSc2c(Cl)ccc[n+]2[O-])c1 | MN | - | cytopathic effect | 0.4 µg/mL
Cc1ccc(C)c(CSc2ccc(Cl)c[n+]2[O-])c1 | IIIB | - | syncytia | >100 µg/mL
COc1cc(-c2ccc(N=Nc3ccc4c(S(=O)(=O)O)cc(S(=O)(=O)O)c(N)c4c3O)c(OC)c2)ccc1N=Nc1ccc2c(S(=O)(=O)O)cc(S(=O)(=O)O)c(N)c2c1O | - | - | - | 7 µM
COc1cccc(F)c1C1SCC(=O)N1c1cccc(C)c1 | IIIB | - | syncytia | 3.25 µM
COC(=O)CNP(=O)(OC[C@@H]1C=C[C@H](n2cc(C)c(=O)[nH]c2=O)O1)Oc1ccccc1 | - | - | - | 6 µM
Cc1ccc(C)c(CS(=O)(=O)c2cccc[n+]2[O-])c1 | IIIB | - | cytopathic effect | 5.3 µg/mL
COc1ccc(S(=O)(=O)N(CC(C)C)CC(O)C(=O)N2CSC[C@H]2C(=O)NC(C)(C)C)cc1 | IIIB | - | p24 | <1 µM
CN[C@@H]1[C@H](O[C@@H]2OC[C@@H](O)[C@H](O)[C@H]2O)[C@@H](O)[C@H](O[C@H]2c3cc(C)c(C(=O)N[C@H](C)C(=O)O)c(O)c3-c3c(cc4c(c3O)C(=O)c3cc(OC)cc(O)c3C4=O)[C@@H]2O)O[C@@H]1C | Mutant AH_3/#100 | - | syncytia | 6.5 µM
O=S(=O)(Cc1ccc(-c2ccccc2)cc1)c1cccc[n+]1[O-] | IIIB | - | syncytia | ≥4 µg/mL
CC(=O)Nc1ccc(C=Cc2ccc(NC(=O)Nc3ccc(C=Cc4ccc(NC(C)=O)cc4S(=O)(=O)O)c(S(=O)(=O)O)c3)cc2S(=O)(=O)O)c(S(=O)(=O)O)c1 | - | - | - | 4 µM
CC(Cl)(c1ccccc1)S(=O)(=O)c1cccc[n+]1[O-] | IIIB | - | syncytia | >4 µg/mL
O=C(c1ccccc1)N(CCc1ccccc1)C[C@H](O)CN(CC1CCCC1)S(=O)(=O)CC1CCOC1 | IIIB | - | p24 | <1 µM
O=[N+]([O-])c1ccc(O)c(CSc2cccc[n+]2[O-])c1 | IIIB | - | syncytia | 10 µg/mL
CC(C)CN(C(=O)C(=O)C(=O)C(Cc1ccccc1)NC(=O)OC1COCOC1)S(=O)(=O)c1ccccc1 | IIIB | - | p24 | <1 µM
CC(C)CN(C[C@@H](O)[C@H](Cc1ccccc1)NC(=O)O[C@@H]1CCOC1)S(=O)(=O)c1ccc(F)cc1 | IIIB | - | p24 | <0.101 µM
CC(C)CN(CC(O)Cn1ccnc1S(=O)(=O)c1ccccc1)S(=O)(=O)c1ccccc1 | IIIB | - | p24 | <1 µM
Cc1ccc(C)c(C(CC(=O)O)S(=O)(=O)c2cccc[n+]2[O-])c1 | IIIB | - | syncytia | >20 µg/mL
Cc1ccnc(N2C(=O)CSC2c2c(F)ccc(C)c2Cl)n1 | IIIB | - | syncytia | 0.338 µM
Cc1ccccc1C(c1ccccc1)S(=O)(=O)c1cccc[n+]1[O-] | IIIB | - | syncytia | >20 µg/mL
Nc1c(N=Nc2ccc(-c3ccc(N=Nc4c(O)ccc5cc(S(=O)(=O)O)cc(S(=O)(=O)O)c45)cc3)cc2)c(S(=O)(=O)O)cc2cc(S(=O)(=O)O)c(N=Nc3ccccc3)c(O)c12 | - | - | - | 10 µM
COC(=O)C(C)(C)NP(=O)(OC[C@@H]1C=C[C@H](n2cc(C)c(=O)[nH]c2=O)O1)Oc1ccccc1 | - | - | - | 0.29 µM
Cc1ccc(C)c(CS(=O)(=O)c2c(O)ccc[n+]2[O-])c1 | IIIB | - | syncytia | 45 µg/mL
COC(=O)[C@@H](NP(=O)(OC[C@@H]1C=C[C@H](n2cc(C)c(=O)[nH]c2=O)O1)Oc1ccccc1)c1ccccc1 | - | - | - | 15.3 µM
CC(C)CN(C[C@@H](O)[C@H](Cc1ccccc1)NC(=O)OC(C)(C)C)S(=O)(=O)c1ccccc1 | IIIB | - | p24 | <1.001 µM
O=S(=O)(O)c1cc2ccc1/C=C\c1ccc(cc1S(=O)(=O)O)N=Nc1ccc(c(S(=O)(=O)O)c1)/C=C\c1ccc(cc1S(=O)(=O)O)N=N2 | - | - | - | 5 µM
CC(C)CN(CC(O)CCN1CCCC[C@H]1C(=O)NC(C)(C)C)S(=O)(=O)c1ccccc1 | IIIB | - | p24 | <1 µM
Cc1ccoc1C(=O)Nc1ccc(Cl)c(C(=O)OC(C)C)c1 | IIIB | - | cytopathic effect / XTT | 0.0033 µg/mL
CCCCCCCCCCCCCCCC(=O)Nc1ccn([C@H]2CC[C@@H](COP(=O)(O)OCC(COP(=O)(O)OC[C@H]3O[C@@H](n4cc(C)c(=O)[nH]c4=O)C[C@@H]3N=[N+]=[N-])OC(=O)CCCCCCCCCCCCCCC)O2)c(=O)n1 | - | - | XTT | 0.0179 µM
Cc1ccc(C)c(CS(=O)c2ncccc2O)c1 | IIIB | - | syncytia | 40 µg/mL
COc1ccc(S(=O)(=O)N(CC2CCCC2)C[C@@H](O)[C@H](Cc2ccccc2)NC(=O)O[C@@H]2CCOC2)cc1 | IIIB | - | p24 | <0.1 µM
Cc1cccn2c(C3OCCS3)cnc12 | IIIB | - | syncytia | >20 µM
Cc1ccc[n+]([O-])c1SC(C)c1ccccc1 | IIIB | - | syncytia | >20 µg/mL
CCCOC(=O)c1cc(NC(=S)OC(C)C)ccc1Cl | IIIB | - | cytopathic effect / XTT | 0.0000443 µg/mL
C[C@H](Cn1cnc2c(N)ncnc21)OCP(=O)(O)O | IIIB | - | syncytia | 3 µM
COc1cc(CS(=O)c2cccc[n+]2[O-])cc(OC)c1OC | IIIB | - | syncytia | >20 µg/mL
Cc1cccn2c(C3SCCS3)cnc12 | IIIB | - | syncytia | >4 µM
Cc1ccc(C)c(C(Cc2ccccc2)S(=O)(=O)c2cccc[n+]2[O-])c1 | IIIB | - | syncytia | >4 µg/mL
C=C(C)[C@@H]1CC[C@]2(C(=O)NCC(=O)O)CC[C@]3(C)[C@H](CC[C@@H]4[C@@]5(C)CC[C@H](O)C(C)(C)[C@@H]5CC[C@]43C)[C@@H]12 | LAI | - | - | >3 µM

Again, the opening 7 rows:

COc1ccc(CS(=O)(=O)c2cccc[n+]2[O-])cc1 ; strain or isolate: IIIB ; read by: syncytia ; result: ≥20 µg/mL
CC(C)OC(=O)c1cc(NC(=O)C(C)(C)C)c(F)cc1Cl ; strain or isolate: IIIB ; read by: cytopathic effect / XTT ; result: 0.0427 µg/mL
O=S(=O)(O)c1cc(N=Nc2cc(S(=O)(=O)O)c3ccccc3c2O)ccc1/C=C/c1ccc(N=Nc2cc(S(=O)(=O)O)c3ccccc3c2O)cc1S(=O)(=O)O ; read by: XTT ; result: 0.49 µM
Cc1cccc(CS(=O)c2cccc[n+]2[O-])c1 ; strain or isolate: IIIB ; read by: syncytia ; result: ≥20 µg/mL
C=C(C)[C@@H]1CC[C@]2(C(=O)NCCCCCCCC(=O)N[C@@H](CC(C)C)[C@@H](O)CC(=O)O)CC[C@]3(C)[C@H](CC[C@@H]4[C@@]5(C)CC[C@H](O)C(C)(C)[C@@H]5CC[C@]43C)[C@@H]12 ; strain or isolate: ELI ; read by: cytopathic effect / MTT ; result: >1 µM
O=C(N[C@@H](Cc1ccccc1)[C@H](O)CN(CC1CCCC1)S(=O)(=O)c1ccc(OC(F)(F)F)cc1)O[C@H]1CCOC1 ; strain or isolate: IIIB ; read by: p24 ; result: <1.001 µM
COc1cccc(F)c1C1SCC(=O)N1c1cccc(C)n1 ; strain or isolate: IIIB ; read by: syncytia ; result: 0.219 µM